Anti-infective test results gathered from many reports (values: NIAID ChemDB through PubChem).

All rows: whole-cell or culture tests; agent: HIV-1; cell line: MT-4; read-out: EC50

ECn is the concentration giving n% inhibition of infection, replication or growth. Rows are shuffled and stem from different studies. Blank or dashed fields: not listed here.

COc1ccc(/C=N/n2sc3ccccc3c2=O)cc1 ; mutations: K103N + Y181C ; method: MTT ; result: >19 µM
CCc1c(Cc2cc(C)cc(C)c2)n(COCC#Cc2ccc(O[Si](c3ccccc3)(c3ccccc3)C(C)(C)C)cc2)c(=O)[nH]c1=O ; strain or isolate: IIIB ; mutations: Y181C ; method: MTT ; result: 20 µM
CCn1c(C)c(C)c2c(-c3ccc(Cl)cc3)c([C@@H](OC(C)(C)C)C(=O)O)c(C)nc21 ; strain or isolate: IIIB ; method: MTT ; result: 1.12 µM
Cc1ccc2sn(/N=C/c3ccc([N+](=O)[O-])cc3)c(=O)c2c1 ; method: MTT ; result: >100 µM
O=C(OCC1OC(OC(=O)c2cc(O)c(O)c(O)c2)C2OC(=O)c3cc(O)c(O)c(O)c3-c3c(cc(O)c(O)c3O)C(=O)OC2C1OC(=O)c1cc(O)c(O)c(O)c1Oc1cc2c(c(O)c1O)-c1c(cc(O)c(O)c1O)C(=O)OC1C(COC2=O)OC(OC(=O)c2cc(O)c(O)c(O)c2)C2OC(=O)c3cc(O)c(O)c(O)c3-c3c(cc(O)c(O)c3O)C(=O)OC12)c1cc(O)c(O)c(O)c1 ; strain or isolate: IIIB ; method: cytopathic effect / MTT ; result: 4.5 µg/mL
CC(C)CN(C[C@@H](O)[C@H](Cc1ccccc1)NC(=O)OC1COC2OCCC12)S(=O)(=O)c1ccc2ncn(Cc3ccccc3)c2c1 ; strain or isolate: LAI WT ; method: cytopathic effect / MTT ; result: 0.002 µM
Cc1nc2c(ccn2C)c(-c2ccc(Cl)cc2)c1[C@H](OC(C)(C)C)C(=O)O ; strain or isolate: IIIB ; method: MTT ; result: 0.222 µM
CCC[C@@]1(CCc2ccccc2)CC(O)=C([C@H](CC)c2cccc(NS(=O)(=O)c3ccc(C(F)(F)F)cn3)c2)C(=O)O1 ; strain or isolate: T21217 ; mutations: L10F I47V L90M ; method: reporter gene ; result: 11800 nM
N#Cc1cc2[nH]c3ccccc3c2n(-c2ccc([N+](=O)[O-])cc2)c1=O ; strain or isolate: D ; mutations: RT-L100I K103N ; method: cytopathic effect / MTT ; result: 1 µM
Cc1nc2ccccc2c(-c2cc(F)c3c(c2C)CCCO3)c1[C@H](OC(C)(C)C)C(=O)O ; strain or isolate: NL4-3 ; mutations: E138K/Q148K ; method: luminescence ; result: 0.017 µM
Cn1c2ccccc2c2c1cc(C#N)c(=O)n2-c1ccc([N+](=O)[O-])cc1 ; strain or isolate: LAI WT ; method: cytopathic effect / MTT ; result: 0.03 µM
O=c1c2ccccc2sn1/N=C/c1cccc([N+](=O)[O-])c1 ; method: MTT ; result: 36 µM
CN1c2ccccc2C2C1C=C(C#N)C(=O)N2c1ccc(N)cc1 ; strain or isolate: LAI ; method: cytopathic effect / MTT ; result: >32 µM
CCc1c(Cc2cc(C)cc(C)c2)n(COCC#Cc2ccccc2C(F)(F)F)c(=O)[nH]c1=O ; strain or isolate: IIIB ; mutations: Y181C ; method: MTT ; result: >25 µM
COC(=O)Nc1nc2ccc(S(=O)(=O)N(CC(C)C)C[C@@H](O)[C@H](Cc3ccccc3)NC(=O)O[C@H]3CO[C@H]4OCC[C@H]43)cc2[nH]1 ; strain or isolate: LAI WT ; method: cytopathic effect / MTT ; result: 0.01 µM
O=c1c2ccccc2sn1/N=C/c1cccc(F)c1 ; method: MTT ; result: >15 µM
CCc1c(Cc2cc(C)cc(C)c2)n(COCC#CC#CCO[Si](c2ccccc2)(c2ccccc2)C(C)(C)C)c(=O)[nH]c1=O ; strain or isolate: IIIB ; mutations: Y181C ; method: MTT ; result: >76 µM
O=C1C=C2C(=O)O[C@H]3[C@@H]4OC(=O)c5cc(O)c(O)c(O)c5-c5c(cc(Oc6c(C(=O)O[C@H]7[C@H](OC(=O)c8cc(O)c(O)c(O)c8)O[C@H](COC(=O)c8cc(O)c(O)c(O)c8)[C@@H](OC(=O)c8cc(O)c(O)c(O)c8)[C@@H]7OC(=O)c7cc(O)c(O)c(O)c7)cc(O)c(O)c6O)c(O)c5O)C(=O)OC[C@H]3O[C@@H](OC(=O)c3cc(O)c(O)c(O)c3)[C@@H]4OC(=O)c3cc(O)c(O)c4c3[C@H]2[C@@](O)(O4)C1=O ; strain or isolate: IIIB ; method: cytopathic effect / MTT ; result: >50 µg/mL
Cc1nc2c(c(C)c(C)n2Cc2cncs2)c(-c2ccc(Cl)cc2)c1[C@H](OC(C)(C)C)C(=O)O ; strain or isolate: IIIB ; method: MTT ; result: 0.009 µM
CCc1c(Cc2cc(C)cc(C)c2)n(COCC#Cc2ccc([N+](=O)[O-])cc2)c(=O)[nH]c1=O ; strain or isolate: IIIB ; mutations: Y181C ; method: MTT ; result: >7 µM
Cc1nc2c(c(C)c(C)n2C)c(-c2ccc(Cl)cc2)c1C(OC(C)(C)C)C(=O)O ; strain or isolate: IIIB ; method: MTT ; result: 0.029 µM
CC(C)CN(C[C@@H](O)[C@H](Cc1ccccc1)NC(=O)O[C@H]1CO[C@H]2OCC[C@H]21)S(=O)(=O)c1ccc2nc(CO)[nH]c2c1 ; strain or isolate: LAI WT ; method: cytopathic effect / MTT ; result: 1.995 µM
Cc1ccc2sn(/N=C/c3ccccc3[N+](=O)[O-])c(=O)c2c1 ; mutations: Y181C ; method: MTT ; result: >100 µM
COC(=O)Nc1nc2ccc(S(=O)(=O)N(CC(C)C)C[C@@H](O)[C@H](Cc3ccccc3)NC(=O)COc3c(C)cc(CN)cc3C)cc2[nH]1 ; strain or isolate: LAI WT ; method: cytopathic effect / MTT ; result: 0.1 µM
O=c1c2ccccc2sn1/N=C/c1ccc2c(c1)OCO2 ; mutations: EFV-resistant (K103 V179D P225H) ; method: MTT ; result: >17 µM
CC1(C)CC=C(c2cn(-c3nccc(C(=O)NC4CCC(N5CC6CCC(C5)O6)CC4)n3)c3ccc(F)c([C@H](OC(C)(C)C)C(=O)O)c23)CC1 ; strain or isolate: NL4-3 ; mutations: T66I ; method: luminescence ; result: 0.0051 µM
CN1c2ccccc2C2C1C=C(C#N)C(=O)N2c1ccc(F)cc1 ; strain or isolate: LAI ; method: cytopathic effect / MTT ; result: >32 µM
Cc1cn([C@H]2C=C[C@@H](CO)O2)c(=O)[nH]c1=O ; strain or isolate: RD 22-RTwt Recombinant ; method: cytopathic effect / MTT ; result: 0.3 µM

For reference, 2 entries again:

structure | strain or isolate | mutations | method | result
CCc1c(Cc2cc(C)cc(C)c2)n(COCC#Cc2ccc(O[Si](c3ccccc3)(c3ccccc3)C(C)(C)C)cc2)c(=O)[nH]c1=O | IIIB | Y181C | MTT | 20 µM
CN1c2ccccc2C2C1C=C(C#N)C(=O)N2c1ccc(N)cc1 | LAI | - | cytopathic effect / MTT | >32 µM